Data: US6663881B2 (priority 1993, dated 2003)

Tests used:
[1] = system: A375 marker-positive cells; assay: Protein synthesis (3H-leucine incorporation) after 5 minute pulse; format: cell-based, human; conditions: short-term
[2] = system: HT29 marker-negative cells; assay: as above; format: cell-based

## Roridin A
[1]
  inhibition of cellular protein synthesis: non-specifically inhibitory
[2]; long-term (16-18 hours recovery)
  inhibition of cellular protein synthesis: still manifest after the 16-18 hours recovery period
[2]; short-term (4 h 3H-leucine immediately after)
  inhibition of cellular protein synthesis: dose-response inhibition
